PubChem BioAssay AID449764 (Southern Research Specialized Biocontainment Screening …, 2010)

System: Mycobacterium tuberculosis H37Rv growth inhibition, no glycerol
Test: Confirmatory growth inhibition assay, Mycobacterium tuberculosis H37Rv, absence of glycerol (AID 449764);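 note: growth read after 7 days of incubation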

Q: Which IC50 does the source give for `O=C(OC1CN2CCC1CC2)C1c2ccccc2Oc2ccccc21` (stereo unspecified) here?
A: The IC50 was 17.8 µM.
